Compound potency records, mixed from different reports. Data source: NIAID ChemDB in PubChem.

Common to all: cytotoxicity tests; cells: VERO; read-out: CC50

Blank or dashed fields: not listed here. Conditions beyond the fields shown may differ between rows. CCn is the concentration with n% toxicity to the cells.

SMILES	read by	result
c1ccc(Oc2ccc(-c3nnc(-c4cccnc4)o3)cc2)cc1	MTT	91.4 µg/mL
CCCCCCCC/C=C\CCCCCCCC(=O)Nc1nc(N)nc2c1ncn2[C@H]1CO[C@@H](COP(=O)(N[C@@H](C)C(=O)OCC)Oc2ccccc2)O1		13 µM
CCOC(=O)c1cc(CNc2ccc(OC(F)(F)F)cc2)on1		>128 µM
CCn1cc(C(=O)O)c(=O)c2cc(F)c(N3CCN(CC(=O)c4ccc(Br)cc4)CC3)cc21		8.1 µg/mL
O=C(NC1CC[Si]2(CCCC2)CC1)c1cc2c(Cl)cc(Cl)cc2[nH]1	visual reading / absorbance	>20 µM
CCOC(=O)c1cc(CN(C)c2ccc(C(F)(F)F)cc2)on1		>128 µM
CCOC(=O)CSc1nnc(-c2ncc([N+](=O)[O-])n2C)s1		10 µg/mL
COc1cc2c(cc1OC)CN(c1cc3c(=O)c(C(=O)O)c4n(c3cc1F)CS4)CC2	MTT	141 µM
CCCCCC(=O)Nc1nc(N)nc2c1ncn2[C@H]1CO[C@@H](COP(=O)(N[C@@H](C)C(=O)OCC)Oc2ccccc2)O1		>100 µM
COc1cccc([C@H](c2cc3cc(Br)ccc3nc2OC)[C@@](O)(CCN(C)C)c2cnc(C)c(C)c2)c1F		>10 µg/mL
O=C(O)c1c2n(c3cc([N+](=O)[O-])c(N4CCC5(CC4)OCCO5)cc3c1=O)CS2	MTT	149 µM
COc1cc2c3c(cc(O)c2cc1C)C(C)(C)C(=O)OC3=O	absorbance	>10 µM
CCN(CC)CCNc1ccc2nc(C)n3c4ccc(O)cc4c(=O)c1c23.Cl		0.35 µg/mL
COc1cccc([C@H](c2cc3cc(Br)ccc3nc2OC)[C@@](O)(CCN(C)C)c2cccc(C)n2)c1OC		>10 µg/mL
CCCCCCCCSC1=CC(=O)c2nc3ccccc3c3ccnc1c23		14.1 µM
O=c1[nH]c(=O)n([C@@H]2C[C@@H](F)[C@H](CO)O2)cc1Cl		>100 µM
NNC(=O)c1ccc(Oc2ccccc2)cc1	MTT	80.7 µg/mL
CCOC(=O)c1c([N+](=O)[O-])c(-c2ccccc2)n(COCCOC(C)=O)c1-c1ccccc1		96 µM
CC1CN(c2cc3c(=O)c(C(=O)O)c4n(c3cc2[N+](=O)[O-])CS4)CC(C)O1	MTT	79.84 µM
O=C(NCN1CCN(c2ccc(C(F)(F)F)cc2)CC1)c1cnccn1		>62.5 µg/mL
O=C([O-])C(F)(F)F.[NH3+]CCNC1=CC(=O)c2nc3ccccc3c3ccnc1c23		2.1 µM
S=C(S)NN1CCCC1		<0.41 µg/mL
O=C(O)c1c(=O)c2cc([N+](=O)[O-])c(N3CCC(n4c(=O)[nH]c5cc(Cl)ccc54)CC3)nc2n2c1sc1ccccc12		106 µM
COc1cc(/C=N/N=C2\SC(CC(=O)O)C(=O)N2c2ccccc2)ccc1O		100 µM
Cc1noc(-c2nc(C)c3c(c2N)C(=O)N(Cc2cccc(Cl)c2)C3=O)n1	MTT	>100 µM
Cc1ccc(/C=N/N=C2\SC(CC(=O)O)C(=O)N2c2ccccc2)cc1		1000 µM
Nc1c(-c2ccccc2)c(-c2ccccc2)n(COCCO)c1-c1ccccc1		42 µM
Cc1c(CN2CCSCC2)cc(-c2ccccc2F)n1-c1ccccc1		4 µg/mL
COc1cccc([C@](O)(CCN(C)C)[C@H](c2cccc(C)c2)c2cc3cc(C#N)ccc3nc2OC)n1		>10 µg/mL
O=C(O)c1c(=O)c2cc([N+](=O)[O-])c(N3CCC(N4CCCCC4)CC3)nc2n2c1sc1ccccc12		123 µM
Nc1ncnc2c1ncn2CC[C@@H](CO)OCP(=O)(O)O		>100 µg/mL
Cc1cc(Nc2ccc(N(C)C)cc2)c2cc(N(C)C)ccc2n1		1.76 µg/mL
O=C(O)CC1S/C(=N\N=C\c2ccc(Cl)cc2Cl)N(c2ccccc2)C1=O		2000 µM
C=CCc1ncn2c(=O)[nH]c(NC(C)=O)nc12		200 µg/mL
CC(=O)OCCOCn1c(-c2ccccc2)cc([N+](=O)[O-])c1-c1ccccc1		37 µM
Cc1cc(C)c2cc(C(=O)N[C@H]3CC[Si](C)(C)C3)[nH]c2c1	visual reading / absorbance	>64 µg/mL
O=C(O)c1c2n(c3cc(F)c(N4CCN(Cc5ccc6c(c5)OCO6)CC4)cc3c1=O)CS2	MTT	>133 µM
NC1CSCCN2CCc3c([nH]c4ccccc34)[C@H]12		≥100 µg/mL
CCOc1ccc2c(c1)n([O-])c1cc(Cl)ccc1[n+]2=O		31.79 µg/mL
CC(C)(C)NC(=O)C1c2ccccc2CCN1c1cc2c(=O)c(C(=O)O)c3n(c2cc1[N+](=O)[O-])CS3	MTT	61.44 µM
Nc1ncnc2c1ncn2[C@@H]1O[C@H](CO)[C@@H](O)[C@@H]1O		32 µg/mL
O=C1C=C(Nc2ccc(Br)cc2)c2ccccc2C1=O		>10 µg/mL
CC(Sc1ncnc2c1cnn2COCC(O)CO)C(N)=O		>400 µg/mL
Cn1cnc2c(NC(=O)c3ccccc3C(F)(F)F)nc(Cl)cc21	MTT	169 µM
c1ccc(Oc2ccc(-c3nnc(-c4ccc(Oc5ccccc5)cc4)o3)cc2)cc1	MTT	92.6 µg/mL
Cc1ccccc1NC(=O)c1cccc2[nH]c(-c3ccncc3)nc12		10.74 µg/mL
COc1cccc([C@H](c2cc3cc(Br)ccc3nc2OC)[C@@](O)(CCN(C)C)c2cnc(C)c(C)c2)c1OC		>10 µg/mL
O=C1c2cccnc2-c2nccc3c2c1nc1ccccc13		<0.14 µM
S=C(S)N1CCCC1		4.09 µg/mL
CC(C)(C)OC(=O)NC1C2CN(c3cc4c(=O)c(C(=O)O)c5n(c4cc3[N+](=O)[O-])CS5)CC21	MTT	65.86 µM
Cc1ccc(NC2=CC(=O)C(=O)c3ccccc32)c(C)c1		8.28 µg/mL
CC(=O)Nc1nc2c(CC(O)CO)nc(C)n2c(=O)[nH]1		200 µg/mL
CCOC(=O)c1c([N+](=O)[O-])c(-c2ccccc2)n(COCCO)c1-c1ccccc1		163 µM
CCSC1=CC(=O)c2nc3ccccc3c3ccnc1c23		6.8 µM
COC(=O)CSc1nnc(-c2ccc([N+](=O)[O-])o2)s1		2.3 µg/mL
COc1c(N2CCN(CNC(=O)c3cnccn3)CC2)c(F)cc2c(=O)c(C(=O)O)cn(C3CC3)c12		>62.5 µg/mL
Nc1ccn([C@@H]2C[C@@H](F)[C@H](CO)O2)c(=O)n1		>100 µM
O=C(O)c1c([N+](=O)[O-])c(-c2ccccc2)n(COCCO)c1-c1ccccc1		>300 µM
CCOC(=O)CCSC1=CC(=O)c2nc3ccccc3c(C)c2C1=O		15.2 µM
Nc1nc2c(ncn2COC(CO)CO)c(=O)[nH]1		>100 µg/mL
COc1ccc2nc3n[nH]c(C)c3c(Cl)c2c1		>100 µg/mL
COC(=O)c1ccccc1NC(=O)C(=O)/C=C(\O)c1ccccc1NC1=CC(=O)C(=O)c2ccccc21	neutral red	>50 µM
NC(=O)CSc1ncnc2c1cnn2COCCO		>400 µg/mL
O=C(OCCNC1=CC(=O)c2nc3ccccc3c3ccnc1c23)c1cnccn1		>25 µM
O=C(Nc1cccc(Br)c1)c1cccc2[nH]c(-c3ccncc3)nc12		8.24 µg/mL
CC(=O)Oc1c(C)c(O)c(C(C)=O)c2c1C1(C)C(=O)C(C(C)=O)=C(O)C=C1O2		7.2 µg/mL
CC(=O)CSc1nnc(Cn2c(-c3cccs3)nc(-c3ccccc3)c2-c2ccccc2)n1C	neutral red	>50 µM
CCCCCC(=O)OC/C=C/c1ccc(OC(=O)CCCCC)c(OC)c1	luminescence	10.2 µg/mL
CCOC(=O)CSc1nnc(-c2ccc([N+](=O)[O-])o2)s1		4.8 µg/mL
O=C1C=C(Nc2ccccc2C(=O)CC(=O)C(=O)Nc2ccc(Cl)c(Cl)c2)c2ccccc2C1=O		9.48 µg/mL
Cc1c(CN2CCSCC2)cc(-c2ccccc2)n1-c1ccc(F)cc1		8 µg/mL
Nc1cc2nc3ccccc3oc-2cc1=O		18.5 µg/mL
CC(=O)Nc1nc2c(CC(O)CO)ncn2c(=O)[nH]1		200 µg/mL
CCCCCCCCCC(=O)Nc1nc(N)nc2c1ncn2[C@H]1CO[C@@H](COP(=O)(N[C@@H](C)C(=O)OCC)Oc2ccccc2)O1		13 µM
O=C(O)c1c(=O)c2cc([N+](=O)[O-])c(N3CCC(O)(c4ccc(Cl)cc4)CC3)nc2n2c1sc1ccccc12		113 µM
COc1cc2c(cc1OC)CN(c1cc3c(=O)c(C(=O)O)c4n(c3cc1[N+](=O)[O-])CS4)CC2	MTT	66.56 µM
CCCCN(CCCC)CCCCNc1ccc(C)c2sc3ccccc3c(=O)c12		9.8 µg/mL
O=[N+]([O-])c1c(-c2ccccc2)c(-c2ccccc2)n(COCCO)c1-c1ccccc1		43 µM
Cc1cc(NCCCCCCCCNc2cc(C)nc3cc(N(C)C)ccc23)c2ccc(N(C)C)cc2n1		3.3 µg/mL
O=C(Nc1cccc(O)c1)c1cccc2[nH]c(-c3ccncc3)nc12		5.9 µg/mL
O=P(O)(O)Oc1c(O)c2ccccc2c2ccccc12		0.38 µg/mL
COc1cc2c(cc1OC)[C@@H]1C(N)CSCON1CC2		40 µg/mL
Cc1ccc(SC2=CC(=O)c3nc4ccccc4c(C)c3C2=O)cc1		23.8 µM
CCC(Sc1ncnc2c1cnn2COCCO)C(N)=O		>400 µg/mL
Cc1nonc1NC(=O)CSc1nc(C23CC4CC(CC(C4)C2)C3)nc2ccccc12	neutral red	>50 µM
COc1ccc2[nH]c3c(c2c1)CCN1OCSCC(N)[C@@H]31		≥1 µg/mL
Cc1c(CN2CCSCC2)cc(-c2ccccc2)n1-c1cccc2ccccc12		4 µg/mL
NC(=S)N/N=C/c1ccc2oc3ccccc3c2c1		19.81 µg/mL
CCCCCCCC(=O)Nc1nc(N)nc2c1ncn2[C@H]1CO[C@@H](COP(=O)(N[C@@H](C)C(=O)OCC)Oc2ccccc2)O1		87 µM
CC(C)(C)c1cc(/C=N/N=C2\SC(CC(=O)O)C(=O)N2c2ccccc2)cc(C(C)(C)C)c1O		1000 µM
CCOC(=O)[C@H](C)NP(=O)(OC[C@@H]1OC[C@H](n2cnc3c(N)nc(N)nc32)O1)Oc1ccccc1		>100 µM
CN(C)c1ccc2nc3ccc(=O)cc-3sc2c1		0.98 µg/mL
O=C(CN1CCN(c2cc3c(cc2F)c(=O)c(C(=O)O)cn3C2CC2)CC1)c1ccc(F)cc1		>10 µg/mL
CSC(=S)N/N=C(/C)Cc1ccccn1		5.1 µg/mL
O=C(CN1CCN(c2cc3c(cc2F)c(=O)c(C(=O)O)cn3C2CC2)CC1)c1ccccc1		51.8 µg/mL
O=C(O)CC1S/C(=N\N=C\c2ccccc2F)N(c2ccccc2)C1=O		2000 µM
CCOC(=O)c1cc(CNc2cc(C(F)(F)F)nc3c(C(F)(F)F)cccc23)on1		>128 µM
O=C(O)c1c2n(c3cc(F)c(N4CCC5(CC4)OCCO5)cc3c1=O)CS2	MTT	>159 µM
Cc1c(CN2CCN(C)CC2)cc(-c2ccccc2)n1-c1ccccc1F		2 µg/mL
O=C(Nc1ccc(Cl)cc1)c1cccc2[nH]c(-c3ccncc3)nc12		20.45 µg/mL
COc1ccc(C[C@@H](C)[C@H](C)Cc2ccc(OC)c(OC)c2)cc1OC		160 µM
Cc1c(CN2CCSCC2)cc(-c2ccccc2)n1-c1ccccc1Cl		2 µg/mL
O=C(NCN1CCN(c2ccc(F)cc2)CC1)c1cnccn1		>62.5 µg/mL

Again, the opening 11 rows:

| SMILES | read by | result |
|---|---|---|
| c1ccc(Oc2ccc(-c3nnc(-c4cccnc4)o3)cc2)cc1 | MTT | 91.4 µg/mL |
| CCCCCCCC/C=C\CCCCCCCC(=O)Nc1nc(N)nc2c1ncn2[C@H]1CO[C@@H](COP(=O)(N[C@@H](C)C(=O)OCC)Oc2ccccc2)O1 |  | 13 µM |
| CCOC(=O)c1cc(CNc2ccc(OC(F)(F)F)cc2)on1 |  | >128 µM |
| CCn1cc(C(=O)O)c(=O)c2cc(F)c(N3CCN(CC(=O)c4ccc(Br)cc4)CC3)cc21 |  | 8.1 µg/mL |
| O=C(NC1CC[Si]2(CCCC2)CC1)c1cc2c(Cl)cc(Cl)cc2[nH]1 | visual reading / absorbance | >20 µM |
| CCOC(=O)c1cc(CN(C)c2ccc(C(F)(F)F)cc2)on1 |  | >128 µM |
| CCOC(=O)CSc1nnc(-c2ncc([N+](=O)[O-])n2C)s1 |  | 10 µg/mL |
| COc1cc2c(cc1OC)CN(c1cc3c(=O)c(C(=O)O)c4n(c3cc1F)CS4)CC2 | MTT | 141 µM |
| CCCCCC(=O)Nc1nc(N)nc2c1ncn2[C@H]1CO[C@@H](COP(=O)(N[C@@H](C)C(=O)OCC)Oc2ccccc2)O1 |  | >100 µM |
| COc1cccc([C@H](c2cc3cc(Br)ccc3nc2OC)[C@@](O)(CCN(C)C)c2cnc(C)c(C)c2)c1F |  | >10 µg/mL |
| O=C(O)c1c2n(c3cc([N+](=O)[O-])c(N4CCC5(CC4)OCCO5)cc3c1=O)CS2 | MTT | 149 µM |